Consider two sequences from publication PMC10470515.

Data set [1] concerns NceR-His (Neisseria gonorrhoeae FA19). As to the kind of experiment: EMSA. To be noted: complete shift with 5 ug NceR and 5 ng probe, 0.156-20 ug tested; EMSA: 5 ng 32P probe, 6% native PAGE at 4 C, pH 8.5 (binding buffer not given); recombinant protein; residues 1-99; protein details: N-terminal His (pET-15b); label: 32P; probe letters rebuilt from the primers and the genome.

The test system is the same in data set [2]. As to the kind of experiment: competition with a labelled probe. To be noted: unlabeled ompA probe inhibits binding to labeled ompA probe, 5 ug NceR; EMSA: 5 ng 32P probe, 6% native PAGE at 4 C, pH 8.5 (binding buffer not given); recombinant protein; residues 1-99; protein details: N-terminal His (pET-15b); label: 32P; probe letters rebuilt from the primers and the genome. On the technique in general: In EMSA bound probe runs differently from free probe, usually more slowly.

Data set [3] has the same test system. As to the kind of experiment: DNase I footprinting. The note with it: three protected sites, one within the -35 region, one within a MisR-binding site, 2, 4, 8 ug NceR; recombinant protein; residues 1-99; protein details: N-terminal His (pET-15b); label: 5' 6-FAM (coding strand), 5' HEX (template strand); probe letters rebuilt from the primers and the genome.

On to “CCGCCTTAGCTCAAAGAGAACGATTCTCTAAGGTGCTGAAGCACCAAGTGAATCGGTTCCGTACTATCTGTACTGTCTGCGGCTTCGCCGCCTTGTCCTGATTTTTGTTAATCCACTATATTCCTAAACCCACCATCCGCGCCTGCCGCACGTACACGTCGACAAACCGAAAATATGGCTGCTCGGCGGCATCGTCGGCGCGTGGGGCTGCCATAAAATCGGACACCATTTCTCCCTGCCCGTTTCGGCAGTATTGCCGATACCGGGTGCAGGCTCGGTCGGCTACGATGTGAAGGTACGTTTTTTTGCGGATGTGGCTGCGGTTTCGGCGCAAATCACGATAAACCCGCGTTGTTTCGGGAAAAATCGGGTAATTTCAGGTTAATTGCACTTTTTCAGACGGCATGATTGCTTATAGTTGTACGGTTTGACATATGCACGGAAGGAAACGCCATGACTTTCTTCAAACCCTTTACCGTCGTGCTGACCGCATCCGCACTCGCGCTTTCCGGCTGCGTTGCCGACCCCGTAACCGGACAGCAGTCCCCAAACAAATCCGCCATGTACGGTTTGGGTGGCGGAATTCTTAA (double strand) [ompA promoter EMSA probe (580 bp)]”, for which the binding result in data set [1] and in data set [2] was “binds” throughout.
As for “AGTGAATCGGTTCCGTACTATCTGTACTGTCTGCGGCTTCGCCGCCTTGTCCTGATTTTTGTTAATCCACTATATTCCTAAACCCACCATCCGCGCCTGCCGCACGTACACGTCGACAAACCGAAAATATGGCTGCTCGGCGGCATCGTCGGCGCGTGGGGCTGCCATAAAATCGGACACCATTTCTCCCTGCCCGTTTCGGCAGTATTGCCGATACCGGGTGCAGGCTCGGTCGGCTACGATGTGAAGGTACGTTTTTTTGCGGATGTGGCTGCGGTTTCGGCGCAAATCACGATAAACCCGCGTTGTTTCGGGAAAAATCGGGTAATTTCAGGTTAATTGCACTTTTTCAGACGGCATGATTGCTTATAGTTGTACGGTTTGACATATGCACGGAAGGAAACGCCATGACTTTC (double strand) [ompA promoter footprint probe]”, in data set [3], the binding result is listed as “binds”.
